Test results taken from patent US20040254162A1, “Oxazolidinone derivatives as antimicrobials” (priority 2001, published 2004).

System: Clostridium perfringens
Assay type: cell-based
Conditions: single isolates, anaerobic agar dilution

SMILES: CC1(C)S[C@@H]2[C@H](NC(=O)[C@H](N)c3ccc(O)cc3)C(=O)N2[C@H]1C(=O)O [Amox]
- MIC Clostridium perfringens: <=.125 μg/ml
